Target: T1, H. pylori PBP1a (Helicobacter pylori, UniProt O25319, /I22V/I24V/I79V/M17V/S417T/V16I, form not given)
T1 sequence (O25319 1-659 V16I/M17V/I22V/I24V/G44S/I79V/I101V/F125L/G242S/E323D/D336E/E406V/S417T/D508E): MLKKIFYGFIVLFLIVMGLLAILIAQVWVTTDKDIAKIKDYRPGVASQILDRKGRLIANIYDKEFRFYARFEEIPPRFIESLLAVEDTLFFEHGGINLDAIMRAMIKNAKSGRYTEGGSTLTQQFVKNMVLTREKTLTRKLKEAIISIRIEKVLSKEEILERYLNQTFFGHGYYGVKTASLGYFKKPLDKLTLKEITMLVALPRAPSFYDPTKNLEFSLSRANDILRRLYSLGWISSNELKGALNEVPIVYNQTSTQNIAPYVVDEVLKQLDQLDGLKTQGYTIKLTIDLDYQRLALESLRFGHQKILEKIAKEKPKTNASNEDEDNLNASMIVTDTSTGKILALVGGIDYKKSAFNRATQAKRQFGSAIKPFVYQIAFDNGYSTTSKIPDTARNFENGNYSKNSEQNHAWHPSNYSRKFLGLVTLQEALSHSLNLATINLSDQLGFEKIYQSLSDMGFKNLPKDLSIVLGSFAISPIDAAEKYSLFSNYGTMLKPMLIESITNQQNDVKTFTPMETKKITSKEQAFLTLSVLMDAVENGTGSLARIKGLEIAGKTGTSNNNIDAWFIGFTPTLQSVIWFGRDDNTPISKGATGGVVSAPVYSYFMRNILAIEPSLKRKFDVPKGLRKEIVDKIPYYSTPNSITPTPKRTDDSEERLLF
Format: binding
Protocol: Fluorescence anisotropy measurements were carried out in triplicates in the wells of 384-well plates using a laser fluorimetry equipped with a 488 nm laser (IsoCyte, Blueshift Biotech, Inc., Sunnyvale, Calif., USA). Various buffers, salts, pH values, and divalent cations (Ca^++, Mg^++, Co^++) were optimized for fluorescence anisotropy measurements. […] The scanning focus was above the plate bottom to avoid detection interferences. Data analysis was performed with the proprietary software, BlueImage (Blueshift Biotech Inc). Fluorescence anisotropy values (A) were calculated using the equation: A=(/∥−G*/⊥)/(/∥+2G*/⊥), where /∥ is the fluorescence intensity of emitted light parallel to excitation, /⊥ is the fluorescence intensity of emitted light perpendicular to excitation, and G is the […] that corrects for instrument bias. The G factor is experimentally determined for each run using the probe-only well as the basal an isotropy.
For the development of an assay for inhibitor screening, F-Moe was pre-incubated with H. pylori PBP1a and then competed with unlabeled Moe A at various concentrations.
For displacement assay, the initial condition contained 40 μl of 100 nM F-Moe, 10 μg/ml H. pylori PBP1a in 10 mM Tris, pH 8.0, 100 mM NaCl. Aliquots of compound stock solution were added and the anisotropy was monitored after 5 minutes of equilibration. […]

Protein sequences, listed by entry. Tags and fused reporters are not part of them.
UniProt O25319, whole entry I22V/I24V/I79V/M17V/S417T/V16I/D336E/D508E/E323D/E406V/F125L/G242S/G44S/I101V: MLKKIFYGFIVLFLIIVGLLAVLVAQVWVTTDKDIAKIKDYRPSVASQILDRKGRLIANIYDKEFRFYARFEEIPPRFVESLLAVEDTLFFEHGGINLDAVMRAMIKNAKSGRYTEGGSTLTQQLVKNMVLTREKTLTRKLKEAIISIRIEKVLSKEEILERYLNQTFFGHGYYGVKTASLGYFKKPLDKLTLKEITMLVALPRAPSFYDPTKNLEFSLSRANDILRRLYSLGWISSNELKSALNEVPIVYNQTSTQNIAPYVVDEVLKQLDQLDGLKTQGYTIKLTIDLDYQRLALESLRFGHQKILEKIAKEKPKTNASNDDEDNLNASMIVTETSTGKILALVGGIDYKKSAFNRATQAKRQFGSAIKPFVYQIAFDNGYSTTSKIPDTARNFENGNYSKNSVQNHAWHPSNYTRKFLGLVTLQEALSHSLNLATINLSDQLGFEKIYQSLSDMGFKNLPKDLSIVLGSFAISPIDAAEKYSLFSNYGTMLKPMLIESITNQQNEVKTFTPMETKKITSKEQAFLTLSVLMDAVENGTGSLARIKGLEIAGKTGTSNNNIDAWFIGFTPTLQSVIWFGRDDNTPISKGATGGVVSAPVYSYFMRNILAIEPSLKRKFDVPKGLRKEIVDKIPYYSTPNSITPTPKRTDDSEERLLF

Substance: Moenomycin A [Compound 1]
- IC50 (read-out: IC50 (fluorescence anisotropy assay, displacement of F-Moe), 100 nM F-Moe, 10 μg/ml H. pylori PBP1a, 10 mM Tris pH 8.0, 100 mM NaCl): 360 nM
- Ki (read-out: KI (inhibition constant), displacement of F-Moe pre-incubated with H. pylori PBP1a): 470 ± 100 nM

Reference: patent US8916540B2, “Antibiotic compositions and related screening methods” (Academia Sinica, priority 2008, dated 2014)
